In patent publication US6706706B2, “Non-nucleoside reverse transcriptase inhibitors” (priority 2002, dated 2004):

Assays:
HIV-1 RT K103N/Y181C = HIV-1 RT K103N/Y181C (Human immunodeficiency virus type 1 group M subtype B, UniProt P03366, K702N/Y780C); test: Reverse Transcriptase (RT) assay, radiometric SPA, double mutant enzyme; assay type: biochemical
[1] = system: HIV replication in C8166 cells, virus coding for mutant reverse transcriptase K103N/Y181C; test: ELISA (p24) assay for activity in cell culture, mutant virus; assay type: cell-based, HIV-1; conditions: Human immunodeficiency virus 1, C8166, 72 h, read-out: EC50 K103N/Y181C (nM)

| SMILES | IC50 (HIV-1 RT K103N/Y181C) [nM] | EC50 [1] [nM] |
| --- | --- | --- |
| CCN1c2ncc(CCOc3ccc(C(=O)O)c(C)c3C)cc2C(=O)N(C)c2cccnc21 [Entry 1001] | > 100 | < 50 |
| CCN1c2ncc(CCOc3ccc(C(=O)O)cc3C)cc2C(=O)N(C)c2cccnc21 [Entry 1002] | > 100 | < 50 |
| CCc1cc(C(=O)O)ccc1OCCc1cnc2c(c1)C(=O)N(C)c1cccnc1N2CC [Entry 1003] | > 100 |  |
| CCN1c2ncc(CCOc3ccc(C(=O)O)c(O)c3C)cc2C(=O)N(C)c2cccnc21 [Entry 1004] | > 100 | > 100 |
| CCN1c2ncc(CCOc3ccc(C(=O)O)cc3Br)cc2C(=O)N(C)c2cccnc21 [Entry 1005] | > 100 |  |
| CCN1c2ncc(CCOc3ccc(C(C)C(=O)O)cc3C)cc2C(=O)N(C)c2cccnc21 (stereo not drawn) [Entry 1006] | > 100 |  |
| CCN1c2ncc(CCOc3ccc(CCC(=O)O)cc3C)cc2C(=O)N(C)c2ccc(Cl)nc21 [Entry 1007] | 50 to 100 | 50 to 100 |
| CCN1c2ncc(CCOc3ccc(CCC(=O)O)cc3C)cc2C(=O)N(C)c2cccnc21 [Entry 1008] | > 100 | > 100 |
| CCN1c2ncc(CCOc3ccc(C=CC(=O)O)cc3C)cc2C(=O)N(C)c2ccc(Cl)nc21 [Entry 1009] | < 50 | < 50 |
| CCN1c2ncc(CCOc3ccc(C=CC(=O)O)cc3C)cc2C(=O)N(C)c2cccnc21 [Entry 1010] | < 50 | < 50 |
| CCN1c2ncc(CCOc3ccc(CC(=O)O)cc3Cl)cc2C(=O)N(C)c2cccnc21 [Entry 1011] | > 100 |  |
| CCN1c2ncc(CCOc3ccc(CC(=O)O)cc3Br)cc2C(=O)N(C)c2cccnc21 [Entry 1012] | > 100 |  |
| CCN1c2ncc(CCOc3ccc(CC(=O)O)c(C)c3C)cc2C(=O)N(C)c2cccnc21 [Entry 1013] | > 100 |  |
| CCN1c2ncc(CCOc3ccc(CC(=O)O)cc3C)cc2C(=O)N(C)c2cccnc21 [Entry 1014] | > 100 | > 100 |
| CCN1c2ncc(CCOc3ccc(C(=O)O)cc3C)cc2C(=O)N(C)c2ccc(Cl)nc21 [Entry 1015] | 50 to 100 |  |
| CCN1c2ncc(CCOc3ccc(C(=O)O)cc3C)cc2C(=O)Nc2c(C)cc(Cl)nc21 [Entry 1016] | > 100 |  |
| CCN1c2ncc(CCOc3ccc(C(=O)O)cc3C)cc2C(=O)N(C)c2ccc(C)nc21 [Entry 1017] | > 100 |  |

| SMILES | IC50 (HIV-1 RT K103N/Y181C) [nM] | EC50 [1] [nM] |
| --- | --- | --- |
| CCN1c2ncc(CCOc3ccc(C(=O)O)cc3C)cc2C(=O)Nc2c(C)ccnc21 [Entry 1018] | > 100 | < 50 |
| CCN1c2ncc(CCOc3ccc(C(=O)O)cc3C)cc2C(=O)N(C)c2ccc(OC)nc21 [Entry 1019] | > 100 |  |
| CCN1c2ncc(CCOc3ccc(C(=O)O)cc3C)cc2C(=O)N(C)c2ccc(F)nc21 [Entry 1020] | > 100 |  |
| CCOc1ccc2c(n1)N(CC)c1ncc(CCOc3ccc(C(=O)O)cc3C)cc1C(=O)N2C [Entry 1021] | > 100 |  |
| CCN1c2ncc(CCOc3ccc(C(=O)O)cc3[N+](=O)[O-])cc2C(=O)N(C)c2cccnc21 [Entry 1022] | > 100 | > 100 |
| CCN1c2ncc(CCOc3ccc(C(=O)O)cc3Cl)cc2C(=O)N(C)c2cccnc21 [Entry 1023] | > 100 | > 100 |
| CCN1c2ncc(CCOc3ccc(C(=O)O)c(N)c3)cc2C(=O)N(C)c2cccnc21 [Entry 1024] | > 100 |  |
| CCN1c2ncc(CCOc3ccc(C(=O)O)cc3C(F)(F)F)cc2C(=O)N(C)c2cccnc21 [Entry 1027] | > 100 |  |
| CCN1c2ncc(CCOc3ccc(C(=O)O)cc3C)cc2C(=O)N(C)c2ccc(N(C)C)nc21 [Entry 1028] | > 100 |  |
| CCN1c2ncccc2NC(=O)c2cc(CCOc3ccc(C(=O)O)cc3C)cnc21 [Entry 1029] | > 100 |  |
| CCN1c2ncc(CCOc3ccc(C(=O)OC)cc3C)cc2C(=O)N(C)c2cccnc21 [Entry 1030] | < 50 | < 50 |
| CCc1cc(C(=O)OC)ccc1OCCc1cnc2c(c1)C(=O)N(C)c1cccnc1N2CC [Entry 1031] | < 50 |  |
| CCN1c2ncc(CCOc3ccc(C(=O)OC)cc3Cl)cc2C(=O)N(C)c2cccnc21 [Entry 1032] | < 50 |  |
| CCN1c2ncc(CCOc3ccc(C(=O)OC)cc3C(F)(F)F)cc2C(=O)N(C)c2cccnc21 [Entry 1033] | > 100 |  |
| CCOc1ccc2c(n1)N(CC)c1ncc(CCOc3ccc(C(=O)OC)cc3C)cc1C(=O)N2C [Entry 1034] | 50 to 100 |  |
| CCN1c2ncc(CCOc3ccc(C(=O)OC)c(F)c3)cc2C(=O)N(C)c2cccnc21 [Entry 1035] | > 100 |  |
